Results taken from PMC12071706 (International Journal of Molecular Sciences, 2025).

Biological target: human ACE2 protein (hACE2), recombinant, His-tagged, Gln18-Ser740 (human, UniProt Q9BYF1 18-740)
Assay: ITC

## GVKGFNCYFPLQSYGFQPTNG [Zeta RBM fragment (peptide) of the SARS-CoV-2 spike protein, E484K]
  stoichiometry N: 0.76
